From article PMC2671405
For some of these results: A negative result means that nothing was seen under these conditions. For some of these results: The exact form of at least one protein or probe is not confirmed. For some of these results: Weaker means in comparison with the reference protein, sequence or condition of that experiment.

The chains behind the UniProt entries cited, without tags or fusion partners. Where a name states a change or a piece, a line headed by the entry shows the natural chain unless it says otherwise.
UniProt O25671: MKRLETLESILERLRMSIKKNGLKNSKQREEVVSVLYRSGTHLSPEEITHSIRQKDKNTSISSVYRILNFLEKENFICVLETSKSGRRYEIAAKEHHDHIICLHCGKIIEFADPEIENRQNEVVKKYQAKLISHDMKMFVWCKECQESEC

Key:
[1] = target: Fur (ferric uptake regulator, rFur, apo form) (Helicobacter pylori 26695) (UniProt O25671); test: EMSA; settings: apo (iron-free, EDTA), very little non-specific binding only at highest Fur (1.07 ug/mL); apo-BB, 2x stock: 24% glycerol, 40 mM Tris pH 8.0, 150 mM KCl, 2 mM DTT, 600 ug/mL BSA, 200 uM EDTA, 0.1 mg/mL sheared salmon sperm DNA; 1 ng labeled DNA; 37 C, 30 min; recombinant protein; residues 1-150; label: 5'-32P; probe letters rebuilt from the primers and the genome
[2] = target: Fur (ferric uptake regulator, rFur, apo form) (Helicobacter pylori 26695) (UniProt O25671); test: competition EMSA; settings: 5x, 10x, 25x cold competitor against each labeled sodB promoter, 2x stock: 24% glycerol, 40 mM Tris pH 8.0, 150 mM KCl, 2 mM DTT, 600 ug/mL BSA, 200 uM EDTA, 0.1 mg/mL sheared salmon sperm DNA, 1 ng labeled DNA, 37 C, 30 min, recombinant protein, residues 1-150, label: 5'-32P, probe letters rebuilt from the primers and the genome

CCAAAGAGGGTAAAGAGAGCGGGATGAAAAGGTTTTTAAATCCATTTTCCCTATCCAAGATGAGCATAACCGCATCACTTTAGAGTATGCGGGTTGTGAATTTGGCAAGTCTAAATACACTGTTAGAGAAGCGATGGAGAGG (double strand) [rpoB promoter (negative control)]
binding result [1]: no binding

GCAACTCTCGTAATGTAAACATGTTTTCTCCTTGTGATCAGATAGCCTTATTGTAATCATTTTTTAATACTTTTTGGTAAATCTTTTCTTAAAAATGGATCTTTATGCAAATTTTGTGG (double strand) [sodB promoter WT 26695]
binding result ([2]; highest affinity (26695>=-5 bp swap>G27), apo-BB): binds

GCAACTCTCGTAATGTAAACATGTTTTCTCCTTGTGATTAGATAGCCGTATTGTAATCATTTTTTAATACTTTTTGGTAAATCTTTTCTTAAAAATTAAATCGTTATGCAAATTTTGTAG (double strand) [sodB promoter WT G27]
binding result ([2]; affinity order 26695>=-5 bp swap>G27, apo-BB): binds more weakly

GCAACTCTCGTAATGTAAACATGTTTTCTCCTTGTGATTAGATAGCCTTATTGTAATCATTTTTTAATACTTTTTGGTAAATCTTTTCTTAAAAATTAAATCGTTATGCAAATTTTGTAG (double strand) [sodB promoter -5 bp swap (C-5A)]
binding result ([2]; competes better than WT G27, apo-BB): binds
